Source: patent US20240109955A1 (published 2024)
Residue numbers refer to the chain shown, from its start.

B1: MX1019 (antibody)
chain: EIVMTQSPAILSVSPGERATLSCRASQSVAINLAWYQQKPGQAPRLLIYAASSRATGIPGRFSGSGSETNFTLTISSLQSGDFAVYYCQQYITWPPSYTFGQGTKLEIKGGGGSGGSGSGGGGSASGSGEVQLVESGGALIQPGGSLRLSCAASGIIVSANYMSWVRQAPGKGLEWVSVIYSGGSTFYADSVKGRFTISRDNSKNTLYLEMNSLRAEDTAVYYCARDAPILGVSDWGQGTLVTVSSASGGSGDKTHTCPPCPAPELLGGPSVFLFPPKPKDTLMISRTPEVTCVVVDVSHEDPEVKFNWYVDGVEVHNAKTKPREEQYNSYVVSVLTVLHQDWLNGKEYKCKVSNKALPAPIEKTISKAKGQPREPQVYTLPPSRDELTKNQVSLTCLVKGFYPSDIAVEWESNGQPENNYKTTPPVLDSDGSFFKKLTVDKSRWQQGNVFSCSVLHEALHSHYTQKSLSLSPG
B2: MX1025 (antibody)
chain: EIVLTQSPGTLSLSPGETATLSCRASQSFSSDLAWYQQKPGQAPRLLIYGASSRATGIPDRFSGSGSGTDFTLTISRLEPADFAVYYCQQYGSSPPVTFGGGTKVEIKGGGGSGGSGSGGGGSASGSGEVQLVESGGGLIQPGGSLRLSCAASGVIVSYNYMNWVRQAPGKGLEWVSVIYSGGSTFYADSVRGRFTISRDNSKNTLYLQMNSLRAEDTAVYYCARDLGPAGAFDIWGLGTMVTVSSASGGSGDKTHTCPPCPAPELLGGPSVFLFPPKPKDTLMISRTPEVTCVVVDVSHEDPEVKFNWYVDGVEVHNAKTKPREEQYNSYVVSVLTVLHQDWLNGKEYKCKVSNKALPAPIEKTISKAKGQPREPQVYTLPPSRDELTKNQVSLTCLVKGFYPSDIAVEWESNGQPENNYKTTPPVLDSDGSFFKKLTVDKSRWQQGNVFSCSVLHEALHSHYTQKSLSLSPG
B3: MX828 (bispecific antibody)
chain: QTVVTQEPSFSVSPGGTVTLTCGLSSGSVSTAYFPSWYQQTPGQAPRTLIYGTNTRSSGVPDRFSGSILGNKAALTITGAQADDESDYYCVLYMGRGIVVFGGGTKLTVLGGSSGEIVLTQSPGTLSLSPGERATLSCRASQSVSSSYLAWYQQKPGQAPRLLIYSASSRATGIPDRFSGSGSGTDFTLTISRLEPEDFAVYFCQQYVGLTGWTFGQGTKVEIKGGGGSGGSGSGGGGSASGSGQMQLVQSGPEVKKPGTSVKVSCKASGFTFTSSAVQWVRQRQRLEWIGWIVVGSGNTNYAQKFQERVTITRDMSTSTAYMELSSLRSEDTAVYYCAAPNCSNVVCYDGFDIWGQGTMVTVSSGGSSGQVQLVESGGGVVQPGRSLRLSCAASGFTLSSYGMHWVRQAPGKGLEWVAVISYDGSNKYYVDSVKGRFTISRDNSKNTLYLQMNSLRAEDTAVYYCRWAYWELLPDYYYGMDVWGQGTTVTVSSASGGSGDKTHTCPPCPAPELLGGPSVFLFPPKPKDTLMISRTPEVTCVVVDVSHEDPEVKFNWYVDGVEVHNAKTKPREEQYNSYVVSVLTVLHQDWLNGKEYKCKVSNKALPAPIEKTISKAKGQPREPQVYTLPPSRDELTKNQVSLTCLVKGFYPSDIAVEWESNGQPENNYKTTPPVLDSDGSFFKKLTVDKSRWQQGNVFSCSVLHEALHSHYTQKSLSLSPG
B4: MX828 (bispecific antibody)
chain: B3 chain
B5: MX829 (bispecific antibody)
chain: DIQMTQSPSSVSASVGDRVIITCRASQGISSWLAWYQQKPGKAPKVLIYDASSLQSGVPSRFSGSGYGTDFTLTISSLQPEDSATYYCQQAKSFPITFGQGTRLEIKGGSSGEIVLTQSPGTLSLSPGERATLSCRASQSVSSSYLAWYQQKPGQAPRLLIYSASSRATGIPDRFSGSGSGTDFTLTISRLEPEDFAVYFCQQYVGLTGWTFGQGTKVEIKGGGGSGGSGSGGGGSASGSGQMQLVQSGPEVKKPGTSVKVSCKASGFTFTSSAVQWVRQRQRLEWIGWIVVGSGNTNYAQKFQERVTITRDMSTSTAYMELSSLRSEDTAVYYCAAPNCSNVVCYDGFDIWGQGTMVTVSSGGSSGQVQLVESGGGVVQPGRSLRLSCAASGFTFSSYAFHWVRQAPGKGLEWVAVISYDGSNQYYADSVKGRFTISRDNSKNTLYLQMNSLRADDTAVYYCARDLAIAVAGTWHYYNGMDVWGQGTTVTVSSASGGSGDKTHTCPPCPAPELLGGPSVFLFPPKPKDTLMISRTPEVTCVVVDVSHEDPEVKFNWYVDGVEVHNAKTKPREEQYNSYVVSVLTVLHQDWLNGKEYKCKVSNKALPAPIEKTISKAKGQPREPQVYTLPPSRDELTKNQVSLTCLVKGFYPSDIAVEWESNGQPENNYKTTPPVLDSDGSFFKKLTVDKSRWQQGNVFSCSVLHEALHSHYTQKSLSLSPG
B6: MX828 + MX829 (other)
chain 1: B3 chain
chain 2: B5 chain
B7: MX830 (bispecific antibody)
chain: B3 chain with V208G
B8: MX831 (bispecific antibody)
chain: B5 chain with V205G
B9: MX830 + MX831 (other)
chain 1: B3 chain with V208G
chain 2: B5 chain with V205G

Legend:
Experiment in all cases: cell-based or functional assay
[1] = target: SARS-CoV-2 Omicron BQ.1 spike protein (SARS-CoV-2, UniProt P0DTC2 14-1273)
[2] = target: SARS-CoV-2 spike protein, Delta variant (B.1.617.2) (SARS-CoV-2, UniProt P0DTC2 14-1273)
[3] = target: SARS-CoV-2 spike protein, Omicron sublineage BA.4/5 (SARS-CoV-2, UniProt P0DTC2 14-1273)
[4] = target: SARS-CoV-2 spike (S) protein, Omicron sublineage BA.2.75.2 (R346T, F486S) (SARS-CoV-2, UniProt P0DTC2)

Row | Binder | IC50, pseudovirus neutralization [4] | IC80, pseudovirus neutralization [4] | also measured
1 | B1 |  |  | IC50, pseudovirus neutralization [1]: 24.1 ng/mL; IC80, pseudovirus neutralization [1]: 61.1 ng/mL
2 | B2 |  |  | IC50, pseudovirus neutralization [1]: 29.8 ng/mL; IC80, pseudovirus neutralization [1]: 43 ng/mL
3 | B3 |  |  | IC50, pseudovirus neutralization [2]: 74.8 nM; IC80, pseudovirus neutralization [2]: 173 nM; IC50, pseudovirus neutralization [3]: 1010 nM; IC80, pseudovirus neutralization [3]: 5.32 µM
4 | B4 | 2.46 µM | 7.94 µM | 
5 | B5 | > 10 µM | > 10 µM | 
6 | B6 | 8.52 µM | > 10 µM | 
7 | B7 | 7.05 µM | > 10 µM | 
8 | B8 | > 10 µM | > 10 µM | 
9 | B9 | 3.71 µM | 9.72 µM | 
